Here are results for 2 substances from publication PMC3642348, “Human and Viral Golgi Anti-apoptotic Proteins (GAAPs) Oligomerize via Different Mechanisms and Monomeric GAAP Inhibits Apoptosis and Modulates Calcium*^([image sbox.jpg])” (2013).

By stoichiometry N is commonly meant a count of units in the complex or per binding partner.

Assay [1] has as its target CMLV vGAAP purified from yeast, GFP-His8 tag removed (camelpox virus). Briefly: non-reducing SDS-PAGE.
Assay [2] deals with CMLV vGAAP-GFP-His8 fusion protein before tobacco etch virus protease cleavage (camelpox virus). The assay is described as follows: non-reducing SDS-PAGE.

Substance “CMLV vGAAP purified from yeast, GFP-His8 tag removed (natural protein)” displayed a stoichiometry N in assay [1] of 4.

In assay [2], “CMLV vGAAP-GFP-His8 fusion protein before tobacco etch virus protease cleavage (natural protein)” came in with a stoichiometry N of 2.
